The experiment deals with H6tHAtev1V(2-94)LS, Photinus pyralis. Kind of experiment: cell-based or functional assay.

The source of these data is patent EP3529371.

On to “BoNT/F1 (recombinant, activated full-length)”, for which the EC50 of cleavage of generic substrate with reporter luc, JDZ-buffer, 1 h 37°C worked out at 0.03 nM and the EC50 of substrate cleavage, endopeptidase assay, JDZ-buffer, 1 h 37°C turned out to be 0.03 nM.
